In ChEMBL document CHEMBL5236607, “Membrane-Active Cyclic Amphiphilic Peptides: Broad-Spectrum Antibacterial Activity Alone and in Combination with Antibiotics” (J Med Chem, 2022):
Calls of active or inactive are those of the source. No cut-off for these calls is given here.

System: Escherichia coli
Experiment: Induction of resistance development in Escherichia coli ATCC 25922 assessed as increase in MIC by microtiter plate reader assay
Type: functional, organism-based
How it was run: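 Serial passage resistance assay with 2-fold microdilution MICs in 96-well plates. Each passage takes the well with the highest concentration still permitting growth, adjusts it to 0.5 McFarland, and dilutes it to a final 5 × 10^5 CFU/mL for the next passage. Eighteen passages; MIC recorded at each. Triplicate.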

## O=C(O)c1cn(C2CC2)c2cc(N3CCNCC3)c(F)cc2c1=O
  Activity: Active
